Results of unrelated studies side by side (data: NIAID ChemDB).

Common to all: tests in culture; species: Mycobacterium tuberculosis

A number after MIC or MFC names an inhibition level or a share of isolates.

O=C(/C=C/c1ccccc1)c1cc(-c2ccccc2)ccc1O ; strain: H37Rv ; read-out: EC50 ; value: <12.5 µg/mL
Nn1c(CCCCCCCCc2nnc(COc3ccc4ccccc4c3O)n2N)nnc1COc1ccc2ccccc2c1O ; strain: H37Rv ; method: resazurin ; read-out: MIC bound ; value: >6.25 µg/mL
COc1ccc2c(c1)OC(c1ccc(Cl)cc1)CC2=O ; read-out: EC50 ; value: >12.5 µg/mL
COCCCn1c(-c2ccc(Cl)cc2)nn2c(=O)c3ccccc3nc2c1=O ; strain: H37Rv ; method: BACTEC ; read-out: MIC bound ; value: >12.5 µg/mL
Cc1cc(C)c(C)c(S(=O)(=O)[O-])c1C.[Na+] ; strain: H37Rv ; read-out: MIC ; value: >100 µg/mL
COc1ccc(/C=C/C(=O)c2cc(C(=O)O)ccc2O)cc1 ; read-out: EC50 ; value: >12.5 µg/mL
CCc1n[nH]c(=O)n1NC(=O)/C=C\C(=O)O ; strain: H37Rv ; method: resazurin ; read-out: MIC bound ; value: >6.25 µg/mL
O=C1CCCN1CCCNCCNCCc1ccccc1F ; read-out: MIC ; value: 50 µM
CO[C@H]1/C=C/O[C@@]2(C)Oc3c(C)c(O)c4c(=O)c(c5oc6cc(N7CCN(CC(C)C)CC7)cc(=O)c6nc5c4c3=C2O)NC(=O)/C(C)=C\C=C\[C@H](C)[C@H](O)[C@@H](C)[C@@H](O)[C@@H](C)[C@H](OC(C)=O)[C@@H]1C ; strain: 29 (rifampin-resistant) ; read-out: MIC ; value: 0.025 µg/mL
O=C(O)CNc1nc2ccccc2s1 ; strain: H37Rv ; read-out: MIC ; value: >100 µg/mL
COc1cc2c(C)c[n+]3cc4cc5c(OC)c(OC)ccc5cc4cc3c2cc1OC.O=C([O-])CS(=O)(=O)O ; strain: H37Rv ; method: BACTEC ; read-out: inhibition ; tested at: 12.5 µg/mL ; value: 53%
CC(Cc1c[nH]c2ccccc12)NCCNCC(c1ccccc1)c1ccccc1 ; read-out: MIC ; value: 6.25 µM
COc1ccc(/C=C/C(=O)c2ccc(Cl)cc2O)cc1 ; read-out: EC50 ; value: <12.5 µg/mL
FC(F)(F)c1ccc(CNCCNCCCCc2ccccc2)cc1 ; read-out: MIC ; value: 25 µM
CC(C)c1ccc2c(c1)CC[C@H]1[C@](C)(CNCCNC3CCCC(C)C3C)CCC[C@]21C ; read-out: MIC ; value: 25 µM
CC(=O)C(N=Nc1nn[nH]n1)C(C)=O ; strain: H37Rv ; read-out: inhibition ; tested at: 6.25 µg/mL ; value: -6%
CC1COc2c(N3CCN(C)CC3)c(F)cc3c(=O)c(C(=O)O)cn1c23 ; strain: ATCC 35827 ; read-out: MIC ; value: 0.5 µg/mL
C1=C(CCNCCNCCC2=CCCCC2)CCCC1 ; read-out: MIC ; value: 12.5 µM
Cc1nc(C(=O)N=C(N)N)c(N)nc1-c1ccccc1 ; strain: H37Rv ; method: BACTEC ; read-out: MIC ; value: ≥12.5 µg/mL
COc1ccc(CCNCCNCCC2=CCCCC2)cc1 ; read-out: MIC ; value: 12.5 µM
CC[C@H]1OC(=O)[C@H](C)[C@@H](O[C@H]2C[C@@](C)(OC)[C@@H](O)[C@H](C)O2)[C@H](C)[C@@H](O[C@@H]2O[C@H](C)C[C@H](N(C)C)[C@H]2O)[C@](C)(O)C[C@@H](C)C(=O)[C@H](C)[C@@H](O)[C@]1(C)O ; strain: DRUG-SUS ; read-out: MBC90 ; value: >8 µg/mL
CCOc1ccccc1CNCCNC12CC3CC(CC(C3)C1)C2 ; read-out: MIC ; value: 25 µM
COc1ccc2c(c1)n([O-])c1ccccc1[n+]2=O ; strain: EMB-R ; read-out: MIC ; value: 0.8 µg/mL
O=C(NCCBr)c1ccc(CCl)cc1 ; strain: H37Rv ; read-out: MIC ; value: >100 µg/mL
C=CCN(CCNCCC(c1ccccc1)c1ccccc1)C1CCCC1 ; read-out: MIC ; value: 25 µM
Cc1ccc(O)c(C(=O)c2ccccc2C(=O)O)c1 ; strain: H37Rv ; read-out: MIC ; value: 50 µg/mL
COc1ccc(CNCCNC[C@]2(C)CCC[C@]3(C)c4ccc(C(C)C)cc4CC[C@@H]23)c(OC)c1 ; read-out: MIC ; value: 25 µM
O=C(O)c1ccc(-c2c3ccc(=O)cc-3oc3cc(O)ccc23)c(C(=O)O)c1 ; strain: H37Rv ; method: BACTEC ; read-out: MIC bound ; value: >12.5 µg/mL
O=C(O)c1c(O)cc(O)cc1O ; strain: H37Rv ; read-out: MIC ; value: >100 µg/mL
O=C(O)Cc1ccc(-n2nnc3c(=O)[nH][nH]c(=O)c32)cc1 ; strain: H37Rv ; method: BACTEC ; read-out: MIC bound ; value: >12.5 µg/mL
CC[C@H]1OC(=O)[C@H](C)[C@@H](O[C@H]2C[C@@](C)(OC)[C@@H](O)[C@H](C)O2)[C@H](C)[C@@H](O[C@@H]2O[C@H](C)C[C@H](N(C)C)[C@H]2O)[C@](C)(O)C[C@@H](C)CN(C)[C@H](C)[C@@H](O)[C@]1(C)O ; strain: ATCC 35822 ; read-out: MIC ; value: >8 µg/mL
O=C(/C=C/c1ccccc1)c1cc(Cl)ccc1O ; read-out: EC50 ; value: <12.5 µg/mL
CC1(C)[C@H]2CC[C@@H](CNCCNC3C4CC5CC(C4)CC3C5)[C@@H]1C2 ; read-out: MIC ; value: 50 µM
CSc1nc(NC2OC(COC(C)=O)C(OC(C)=O)C(OC(C)=O)C2OC(C)=O)c(N=CC=Nc2c(NC3OC(COC(C)=O)C(OC(C)=O)C(OC(C)=O)C3OC(C)=O)nc(SC)n(C)c2=O)c(=O)n1C ; strain: H37Rv ; method: resazurin ; read-out: inhibition ; tested at: 6.25 µg/mL ; value: 8%
CO[C@H]1/C=C/O[C@@]2(C)Oc3c(C)c(O)c4c(O)c(c(/C=N/N5CCN(C/C=C/c6ccccc6)CC5)c(O)c4c3C2=O)NC(=O)/C(C)=C\C=C\[C@H](C)[C@H](O)[C@@H](C)[C@@H](O)[C@@H](C)[C@H](OC(C)=O)[C@@H]1C ; strain: 2230 (rifampin-resistant) ; read-out: MIC ; value: 0.2 µg/mL
O=C(CC(=O)Nc1cccc(Cl)c1)Nc1cccc(Cl)c1 ; strain: H37Rv ; read-out: MIC ; value: >100 µg/mL
CC(C)N=c1cc2n(-c3ccc(Cl)cc3)c3ccccc3nc-2cc1Nc1ccc(Cl)cc1 ; strain: MDR9 ; method: broth dilution / resazurin ; read-out: MIC ; value: 0.25 µg/mL
O=c1[nH]n2c(=O)cc[nH]c2c1-c1nnns1 ; strain: H37Rv ; method: BACTEC ; read-out: inhibition ; tested at: 12.5 µg/mL ; value: 16%
c1ccc(-c2cccc(-c3ccccc3)n2)cc1 ; strain: H37Rv ; read-out: MIC ; value: 25 µg/mL
CCC(C)(C)NCCNCc1ccc(C(F)(F)F)cc1 ; read-out: MIC ; value: 25 µM
NC(=S)N/N=C1\C(=O)N(Cc2ccccc2)C(=O)C1C(=O)NCc1ccccc1 ; strain: H37Rv ; method: resazurin ; read-out: MIC bound ; value: >6.25 µg/mL
O=c1[nH][nH]c(=O)[nH]1 ; strain: H37Rv ; read-out: MIC ; value: >100 µg/mL
COc1ccc(NC(=O)C(COCc2ccccc2)C(C)=O)cc1 ; strain: H37Rv ; method: BACTEC ; read-out: MIC bound ; value: >12.5 µg/mL
C=CCNCCNC1(C)CN(CC(CC)CCCC)CN(CC(CC)CCCC)C1 ; read-out: MIC ; value: 12.5 µM
FC(F)(F)c1ccc(CNCCNCCC2=CCCCC2)cc1 ; read-out: MIC ; value: 50 µM
O=[N+]([O-])c1ccc2c(c1)ncn2CO ; strain: H37Rv ; read-out: MIC ; value: 100 µg/mL
CC(=O)/C=N/NC(=O)C(O)C(O)C(O)C(O)CO ; strain: H37Rv ; method: BACTEC ; read-out: MIC bound ; value: >12.5 µg/mL
CCN(CC)c1ccc(C(=O)c2ccccc2C(=O)O)cc1[N+](=O)[O-] ; strain: H37Rv ; read-out: MIC ; value: >100 µg/mL
CC(C)=CCC/C(C)=C/CNCCN1CCCC2CCCCC21 ; read-out: MIC ; value: 25 µM
CCOC(=O)C1CC(C)CCC1=O ; strain: H37Rv ; read-out: MIC ; value: >100 µg/mL
CCCCN(C)N=Nc1c(C(N)=O)n[nH]c1C ; strain: H37Rv ; method: BACTEC ; read-out: inhibition ; tested at: 12.5 µg/mL ; value: 63%
OCCNCCOc1ccccc1-c1ccccc1 ; strain: H37Rv ; read-out: MIC ; value: 100 µg/mL
CC1CN(c2cc3c(cc2F)c(=O)c(C(=O)O)cn3-c2ccc(F)cc2F)CCN1 ; strain: ATCC 35823 ; read-out: MIC ; value: 1 µg/mL
Cl.NCCCCOc1cccc(OCCCCN)c1 ; strain: H37Rv ; read-out: MIC ; value: >100 µg/mL
Oc1cc(O)c2c(c1)OC(c1ccc(O)c(O)c1)C(O)C2c1c(O)cc(O)c2c1OC(c1ccc(O)c(O)c1)C(O)C2 ; strain: H37Rv ; method: BACTEC ; read-out: inhibition ; tested at: 12.5 µg/mL ; value: -8%
c1ccc2cc3c(ccc4ccccc43)cc2c1 ; strain: H37Rv ; read-out: MIC ; value: >100 µg/mL
O=C1c2ccccc2C(=O)c2[nH]ncc21 ; strain: H37Rv ; method: resazurin ; read-out: MIC bound ; value: >6.25 µg/mL
O=C(CN1C(=O)c2ccccc2C1=O)CN1C(=O)c2ccccc2C1=O ; strain: H37Rv ; read-out: MIC ; value: >100 µg/mL
CCCCCCCCCCCCCCCCCCNCCN[C@H]1C[C@H]2CC[C@]1(C)C2(C)C ; read-out: MIC ; value: 25 µM
c1ccc(CCCCc2ccccn2)cc1 ; strain: H37Rv ; read-out: MIC ; value: >100 µg/mL
CC1=CC(C)(C)Nc2ccc(CSc3ccccc3)cc21 ; strain: H37Rv ; method: BACTEC ; read-out: MIC bound ; value: >12.5 µg/mL
O=C(c1ccc(Br)cc1)c1ccc(Br)cc1 ; strain: H37Rv ; read-out: MIC ; value: 100 µg/mL
O=[N+]([O-])c1ccc(N/N=C/c2ccc(Cl)c(Cl)c2)nc1 ; strain: H37Rv ; method: BACTEC ; read-out: MIC bound ; value: >12.5 µg/mL
CC[Si](CC)(Nc1ccccn1)Nc1ccccn1 ; strain: H37Rv ; read-out: MIC ; value: >100 µg/mL
Cc1nc(Nc2nc3ccccc3[nH]2)nc(Cl)c1CCCl ; strain: H37Rv ; method: BACTEC ; read-out: inhibition ; tested at: 6.25 µg/mL ; value: 0%
O=S(=O)(O)c1ccc2cc(O)ccc2c1 ; strain: H37Rv ; read-out: MIC ; value: >100 µg/mL
COc1cc(OC)c2c(c1)OC(c1cc(OC)c(OC)c(OC)c1)CC2=O ; strain: H37Rv ; read-out: inhibition ; tested at: 12.5 µg/mL ; value: 0%

The last 8 rows once more:

| structure | strain | method | read-out | tested at | value |
|---|---|---|---|---|---|
| c1ccc(CCCCc2ccccn2)cc1 | H37Rv | - | MIC | - | >100 µg/mL |
| CC1=CC(C)(C)Nc2ccc(CSc3ccccc3)cc21 | H37Rv | BACTEC | MIC bound | - | >12.5 µg/mL |
| O=C(c1ccc(Br)cc1)c1ccc(Br)cc1 | H37Rv | - | MIC | - | 100 µg/mL |
| O=[N+]([O-])c1ccc(N/N=C/c2ccc(Cl)c(Cl)c2)nc1 | H37Rv | BACTEC | MIC bound | - | >12.5 µg/mL |
| CC[Si](CC)(Nc1ccccn1)Nc1ccccn1 | H37Rv | - | MIC | - | >100 µg/mL |
| Cc1nc(Nc2nc3ccccc3[nH]2)nc(Cl)c1CCCl | H37Rv | BACTEC | inhibition | 6.25 µg/mL | 0% |
| O=S(=O)(O)c1ccc2cc(O)ccc2c1 | H37Rv | - | MIC | - | >100 µg/mL |
| COc1cc(OC)c2c(c1)OC(c1cc(OC)c(OC)c(OC)c1)CC2=O | H37Rv | - | inhibition | 12.5 µg/mL | 0% |

Inhibition is in % at the dose shown (toxicity tests: loss of growth or viability). ECn is the concentration giving n% inhibition of infection, replication or growth. An empty or dashed field is not shown. Lines come from different laboratories, so protocols vary. MIC bound: limit read from a one-dose screen.